Pooled drug test results. Numbers come from NIAID ChemDB, via PubChem.

Common to all: whole-cell or culture tests; organism: HIV-1; cell line: TZM-bl; read-out: EC50

Lines come from different laboratories, so protocols vary.

COc1ccc(C(=O)Nc2ccc(CCC(=O)/C=C/c3ccc(O)c(O)c3)cc2)cc1 ; strain: BaL ; read by: luciferase ; result: 16.56 µM
O=C(CCC(=O)Nc1ccc([N+](=O)[O-])cn1)Nc1ccc([N+](=O)[O-])cn1 ; strain: IIIB ; read by: luciferase ; result: 15.7 µM
Clc1ccc2nc(/C=C/c3cccc4ccccc34)cc(Cl)c2c1 ; strain: UG070 ; read by: luminescence ; result: 58.53 µM
O=C1NC(=Nc2ccc(Cl)c(F)c2)S/C1=C\c1ccc(-c2ccc(C(=O)O)c(O)c2)o1 ; strain: AD8 ; read by: β-galactosidase ; result: >10 µM
N#CCc1ccc2cccc(S(=O)(=O)n3nc(Nc4ccc(C#N)c(Cl)c4)nc3N)c2c1 ; strain: IIIB ; read by: luciferase / RT activity ; result: 0.00529 µM
O=C(Cn1ccc(=O)[nH]c1=O)Nc1ccccn1 ; strain: IIIB ; read by: luciferase ; result: 243 µM
Cc1ccc(-c2cc(-c3ccccc3)n(-c3ccccc3)n2)c(=O)[nH]1 ; strain: VB59 ; read by: luminescence ; result: 16.12 µM
Fc1ccc(/C=C/c2cc(Cl)c3ccccc3n2)cc1 ; strain: UG070 ; read by: luminescence ; result: 41.34 µM
Cc1ccc(N=Cc2cc3ccccc3nc2Nc2ccc(C)cc2)cc1 ; strain: UG070 ; read by: luminescence ; result: >130 µM
Cc1cc(C)cc(Cc2c(I)c(=O)[nH]c(=O)n2COCc2ccccc2)c1 ; strain: SF33 ; read by: p24 / ELISA ; result: 0.002 µM
COC[C@@H](c1ccc(C(F)(F)F)cc1)N1CCN(C2(C)CCN(C(=O)c3c(C)ncnc3C)CC2)C[C@@H]1C ; strain: R14/S ; mutations: G514V ; result: 0.0034 µM
O=C1NC(=NCCc2ccc(F)cc2)S/C1=C\c1ccc(-c2ccc(C(=O)O)c(O)c2)o1 ; read by: β-galactosidase ; conditions: pseudotyped ; result: 3.9 µM
Fc1cccc(N=Cc2cc3ccccc3nc2Nc2cccc(F)c2)c1 ; strain: VB59 ; read by: luminescence ; result: >130 µM
C#C[C@@]1(COP(=O)(O)OP(=O)(O)OP(=O)(O)O)C=C[C@H](n2cc(C)c(=O)[nH]c2=O)O1 ; strain: NL4-3 ; mutations: P119S/T165A/M184V ; read by: luciferase ; result: 4.9 µM
COc1ccc(/C=C/c2cc(Cl)c3cc(Cl)ccc3n2)c(OC)c1 ; strain: VB59 ; read by: entry / luminescence ; result: 0.33 µM
O=C1NC(=NCCc2ccc(F)cc2)S/C1=C\c1ccc(-c2cccc([N+](=O)[O-])c2)o1 ; strain: AD8 ; read by: β-galactosidase ; result: >10 µM
Cc1nnc(-c2cccc(-c3cccc(C(=O)N4CCCCC4)c3)c2)o1 ; strain: 25710 ; read by: luminescence ; conditions: pseudotyped ; result: >30 µM
CCC(=O)c1ccc(F)c([C@@H]2C[C@@H]2NC(=O)Nc2ccc(C#N)cn2)c1O ; strain: LAI ; mutations: NNRTI-resistant (RT K103S) ; read by: β-galactosidase / luminescence ; result: 0.0153 µM
COc1ccnc2[nH]cc(C(=O)C(=O)N3C4CCCC3CN(C(=O)c3ccccc3)C4)c12 ; strain: 6535 ; read by: luciferase ; result: 0.02 µM
Nc1ccn([C@@H]2CS[C@H](CO)O2)c(=O)n1 ; strain: NL4-3 ; mutations: R263K ; read by: luciferase ; result: 0.00037 µM
Cc1nnc(C(=O)NC(C)(C)c2nc(C(=O)NCc3ccc(F)cc3)c(O)c(=O)n2C)o1 ; strain: SF162 ; read by: luciferase ; result: 0.00219 µM
COc1ccc(/C=C/c2cc(Cl)c3ccccc3n2)c(OC)c1 ; strain: VB59 ; read by: luminescence ; result: 6.89 µM
COc1cccc2ccc(-c3nnc(-c4ccccc4)o3)nc12 ; strain: VB59 ; read by: luminescence ; result: >300 µM
O=C(Cn1ccc(=O)[nH]c1=O)Nc1ccc(Br)cn1 ; strain: UG070 ; read by: luciferase ; result: 70 µM
COc1ccnc2[nH]cc(C(=O)C(=O)N3CCN(C(=O)c4ccccc4)C[C@H]3C)c12 ; strain: SF162 ; read by: luciferase ; result: 0.002 µM
Cc1ccc(-c2cc(-c3ccccc3)n(-c3ccc(Cl)cc3)n2)c(=O)[nH]1 ; strain: UG070 ; read by: luminescence ; result: 213 µM
O=C(Cn1ccc(=O)[nH]c1=O)Nc1ccc([N+](=O)[O-])cn1 ; strain: IIIB ; read by: luciferase ; result: 1 µM
Cc1ccc(-n2nc(-c3ccc(C)[nH]c3=O)cc2-c2ccccc2)c(C)c1 ; strain: VB59 ; read by: luminescence ; result: >56.34 µM
COc1cccc2ccc(-c3nnc(-c4cccc(F)c4)o3)nc12 ; strain: VB59 ; read by: luminescence ; result: >150 µM
O=C(OC[C@H]1O[C@@H](OC(=O)c2cc(O)c(O)c(O)c2)[C@H](O)[C@@H](OC(=O)c2cc(O)c(O)c(O)c2)[C@@H]1O)c1cc(O)c(O)c(O)c1 ; strain: HXB2 ; read by: visual reading / absorbance ; conditions: pseudotyped ; result: 15.2 µM
O=C(CCC(=O)n1cnc2c([N+](=O)[O-])cccc21)n1cnc2c([N+](=O)[O-])cccc21 ; strain: ADA5 ; read by: luciferase ; result: 15.4 µM
COc1ccc(-n2nc(-c3ccc(C)[nH]c3=O)cc2-c2ccccc2)cc1 ; strain: UG070 ; read by: luminescence ; result: 99.97 µM
Cc1nnc(C(=O)NC(C)(C)c2nc(C(=O)NCc3ccc(F)cc3)c(O)c(=O)n2C)o1 ; strain: NL4-3 ; read by: luciferase / luminescence ; result: 0.00756 µM
O=C(O[C@@H]1OC2COC(=O)c3cc(O)c(O)c(O)c3-c3c(cc(O)c(O)c3O)C(=O)O[C@@H](C1O)[C@@H]2O)c1cc(O)c(O)c(O)c1 ; strain: HXB2 ; read by: visual reading / absorbance ; conditions: pseudotyped ; result: >100 µg/mL
O=C(/C=C/c1ccc(O)c(O)c1)CCc1ccc(NC(=O)C2CCCCC2)cc1 ; strain: BaL ; read by: luciferase ; result: >50 µM
COc1ccc(/C=C/c2cc(Cl)c3ccccc3n2)cc1 ; strain: UG070 ; read by: luminescence ; result: 18.62 µM
C[C@@H]1CCO[C@H]2Cn3cc(C(=O)NCc4ccc(F)cc4F)c(=O)c(O)c3C(=O)N12 ; mutations: V72I ; read by: luciferase / luminescence ; result: 0.0025 µM
CCCCCCCCCCCCCCCCCC1N[C@@H](CO)[C@H](O)[C@H](O)[C@@H]1O ; strain: NL4-3 ; read by: luciferase ; result: 3 µM
COc1cccc2ccc(-c3nnc(-c4ccc(N(C)C)cc4)o3)nc12 ; strain: UG070 ; read by: luminescence ; result: 38.83 µM
COc1cccc(-n2nc(-c3ccc(C)[nH]c3=O)cc2-c2ccccc2)c1 ; strain: VB59 ; read by: luminescence ; result: >280 µM
Clc1cc(/C=C/c2ccc3c(c2)OCO3)nc2ccccc12 ; strain: UG070 ; read by: luminescence ; result: 72.32 µM
CC(=O)Oc1ccc(/C=C/C(=O)CCc2ccc(NC(=O)C3CCCCC3)cc2)cc1OC(C)=O ; strain: BaL ; read by: luciferase ; result: 29.67 µM
Cc1nnc(C(C)C)n1C1C[C@H]2CC[C@@H](C1)N2CC[C@H](NC(=O)C1CCC(F)(F)CC1)c1ccccc1 ; strain: NLAD8 ; read by: luciferase ; result: 0.208 µM
C[C@H](Cn1cnc2c(N)ncnc21)OCP(=O)(O)O ; mutations: NL/2AZT+348 ; result: 10.6 µM
COc1cccc2ccc(-c3nnc(-c4ccc(F)cc4)o3)nc12 ; strain: VB59 ; read by: luminescence ; result: >300 µM
O=C(/C=C/c1ccc(O)c(O)c1)CCc1ccc(NC(=O)c2ccc([N+](=O)[O-])cc2)cc1 ; strain: BaL ; read by: luciferase ; result: >50 µM
COc1cc(Br)ccc1/C=C/c1cc(Cl)c2ccccc2n1 ; strain: VB59 ; read by: luminescence ; result: 27.49 µM
Cc1cn(CC(=O)Nc2ccc([N+](=O)[O-])cn2)c(=O)[nH]c1=O ; strain: UG070 ; read by: luciferase ; result: 32.68 µM
Cc1ccc(-c2cc(-c3ccccc3)n(-c3ccc(Br)cc3)n2)c(=O)[nH]1 ; strain: UG070 ; read by: luminescence ; result: 45.17 µM
N#Cc1ccc(S(=O)(=O)n2nc(Nc3ccc(C#N)c(Cl)c3)nc2N)c(Cl)c1 ; strain: IIIB ; mutations: Y181C/K103N ; read by: luciferase / RT activity ; result: >1 µM
O=C1NC(=NCc2ccc(Cl)c(Cl)c2)S/C1=C\c1ccc(-c2ccc(C(=O)O)c(O)c2)o1 ; strain: AD8 ; read by: β-galactosidase ; result: 2 µM
CC1=C(CO)CC(C(C)C2CCC3C4CC=C5CC(OC6OC(COC7OC(CO)C(O)C(O)C7O)C(O)C(O)C6O)CC(O)C5(C)C4CCC23C)OC1=O ; strain: HXB2 ; read by: visual reading / absorbance ; conditions: pseudotyped ; result: 16.2 µM
Cc1ccc(/C=C/c2cc(Cl)c3cc(Cl)ccc3n2)cc1 ; strain: UG070 ; read by: luminescence ; result: 119 µM
Cc1ccc(-c2cc(-c3ccccc3)n(-c3ccccc3C)n2)c(=O)[nH]1 ; strain: UG070 ; read by: luminescence ; result: >147 µM
Nc1nc(Nc2ccc(Cl)cc2)nn1S(=O)(=O)c1cnn(-c2nccc(C(F)(F)F)n2)c1 ; strain: IIIB ; read by: luciferase / RT activity ; result: 0.2409 µM
Clc1ccc(N=Cc2cc3ccccc3nc2Nc2ccc(Cl)cc2)cc1 ; strain: UG070 ; read by: luminescence ; result: >100 µM

5 of the rows above, restated:

smiles,strain,mutations,read by,conditions,result
O=C(O[C@@H]1OC2COC(=O)c3cc(O)c(O)c(O)c3-c3c(cc(O)c(O)c3O)C(=O)O[C@@H](C1O)[C@@H]2O)c1cc(O)c(O)c(O)c1,HXB2,-,visual reading / absorbance,pseudotyped,>100 µg/mL
C#C[C@@]1(COP(=O)(O)OP(=O)(O)OP(=O)(O)O)C=C[C@H](n2cc(C)c(=O)[nH]c2=O)O1,NL4-3,P119S/T165A/M184V,luciferase,-,4.9 µM
CC1=C(CO)CC(C(C)C2CCC3C4CC=C5CC(OC6OC(COC7OC(CO)C(O)C(O)C7O)C(O)C(O)C6O)CC(O)C5(C)C4CCC23C)OC1=O,HXB2,-,visual reading / absorbance,pseudotyped,16.2 µM
Cc1ccc(-c2cc(-c3ccccc3)n(-c3ccccc3C)n2)c(=O)[nH]1,UG070,-,luminescence,-,>147 µM
O=C1NC(=Nc2ccc(Cl)c(F)c2)S/C1=C\c1ccc(-c2ccc(C(=O)O)c(O)c2)o1,AD8,-,β-galactosidase,-,>10 µM

ECn is the concentration giving n% inhibition of infection, replication or growth. Blank or dashed fields: not listed here.